# PubChem BioAssay AID1259414 – Drosophila RNAi Screening Center – 2018
# Aim: 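Host factors increasing or decreasing Wolbachia levels in cultured fly cells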 (primary screen)
# Cell system: Drosophila JW18 cells infected with Wolbachia
# Reagent: long dsRNA against Drosophila genes, 0.25 µg dsRNA per well of a 384-well plate
# Duration: 5 days
# Treatment: cells persistently infected with Wolbachia before knock-down; no added drug
# Detection: 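Automated imaging of bacterial rRNA staining divided by host cell count, reported as plate-normalised robust z-score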
# Scale: Wolbachia per cell robust z: higher = more Wolbachia per host cell than the plate typical
# Call rule: 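Active if absolute robust z reaches 1.5 in two or more of three replicates, leaving out multi- or no-target dsRNAs, genes unexpressed in JW18 and A1 wells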
# In all, the deposit lists about 24,000 reagents; below is an unselected part of those that have a named target and a result. Of all reagents, about 1,210 (5%) got an active call. 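Inactive calls also include excluded dsRNAs with several or no targets, genes unexpressed in JW18, and well A1, regardless of score.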 A number with no mark means an inactive call. Reagents against one gene are numbered here. Names joined by + are all predicted targets of the reagent.
Target gene,reagent,"Wolbachia per cell robust z, rep 1","Wolbachia per cell robust z, rep 2","Wolbachia per cell robust z, rep 3"
btn + CG6937,1,-2.63,-0.0255,0.0577
mRpS22 (mitochondrial ribosomal protein S22),1,-0.317,-0.638,-0.406
mRpS22 (mitochondrial ribosomal protein S22),2,0.424,-0.662,-0.679
Tdg (Thymine DNA glycosylase),1,1.42,1.18,-0.275
Tdg (Thymine DNA glycosylase),2,-1.13,-0.196,0.245
Tdg (Thymine DNA glycosylase),3,0.0762,0.948,2.79
ECSIT,1,-0.799,-0.583,0.47
Pde6 (Phosphodiesterase 6),1,-1.62 (active),0.36,-2.54
Pde6 (Phosphodiesterase 6),2,0.72,0.838,0.48
Pde6 (Phosphodiesterase 6),3,0.6,1.4,1.13
CG7739,1,-0.129,-1.97,-0.134
NijC (Ninjurin C),1,0.00745,-1.75,-6.68
NijC (Ninjurin C),2,-0.788,0.49,0.349
Acsl (Acyl-CoA synthetase long-chain),1,1.37,1.41,0.679
Brd7-9 (Bromodomain containing 7/9),1,0.216,0.011,0.825
Brd7-9 (Bromodomain containing 7/9),2,-1.54,0.532,1.67
CG14721,1,0.208,-0.359,-0.164
CG14721,2,1.11,-1.45,0.325
CG12605,1,0.291,0.672,1.2
CG12605,2,-0.606,-0.149,-0.254
CG12605,3,-1.1,0.0507,0.129
Tep3 (Thioester-containing protein 3),1,0.272,0.789,-0.161
CG42613,1,-1.34,-0.108,-2.82
CG42613,2,-4.44,0.538,-0.0511
CG42613,3,0.229,-0.414,-0.134
CG42613,4,0.889,0.661,1.71
CG42613,5,-1.99 (active),-1.64,-0.447
CG42613,6,-0.127,-1.9,-0.0262
Tgs1 + moi,1,0.171,0.635,-4.69
Tgs1 + moi,2,-4.13,0.271,-0.744
CG11307,1,1.27,0.805,-2.75
CG11307,2,-1.78,0.49,-1.47
gogo (golden goal),1,-0.936,-2.02,-0.261
gogo (golden goal),2,-0.849 (active),-3.63,-1.92
kairos,1,0.148,0.539,-0.306
kairos,2,-9.46,-0.926,-11.1
CG5397,1,-0.541,1.74,-0.438
CG5397,2,0.52,0.609,-0.332
CG14416,1,0.767,0.183,1.16
CG14416,2,0.207,0.205,0.566
CG6834,1,0.593,-0.879,0.588
CG6834,2,0.0635,0.291,-0.587

7 entries from above, reformatted:
{"Target gene": "NijC (Ninjurin C)", "reagent": 2, "Wolbachia per cell robust z, rep 1": -0.788, "Wolbachia per cell robust z, rep 2": 0.49, "Wolbachia per cell robust z, rep 3": 0.349}
{"Target gene": "Acsl (Acyl-CoA synthetase long-chain)", "reagent": 1, "Wolbachia per cell robust z, rep 1": 1.37, "Wolbachia per cell robust z, rep 2": 1.41, "Wolbachia per cell robust z, rep 3": 0.679}
{"Target gene": "Brd7-9 (Bromodomain containing 7/9)", "reagent": 1, "Wolbachia per cell robust z, rep 1": 0.216, "Wolbachia per cell robust z, rep 2": 0.011, "Wolbachia per cell robust z, rep 3": 0.825}
{"Target gene": "Brd7-9 (Bromodomain containing 7/9)", "reagent": 2, "Wolbachia per cell robust z, rep 1": -1.54, "Wolbachia per cell robust z, rep 2": 0.532, "Wolbachia per cell robust z, rep 3": 1.67}
{"Target gene": "CG14721", "reagent": 1, "Wolbachia per cell robust z, rep 1": 0.208, "Wolbachia per cell robust z, rep 2": -0.359, "Wolbachia per cell robust z, rep 3": -0.164}
{"Target gene": "CG14721", "reagent": 2, "Wolbachia per cell robust z, rep 1": 1.11, "Wolbachia per cell robust z, rep 2": -1.45, "Wolbachia per cell robust z, rep 3": 0.325}
{"Target gene": "CG12605", "reagent": 1, "Wolbachia per cell robust z, rep 1": 0.291, "Wolbachia per cell robust z, rep 2": 0.672, "Wolbachia per cell robust z, rep 3": 1.2}

Next entries follow:
Target gene,reagent,"Wolbachia per cell robust z, rep 1","Wolbachia per cell robust z, rep 2","Wolbachia per cell robust z, rep 3"
"Alg2 (ALG2, alpha-1,3/1,6-mannosyltransferase)",1,0.253,0.738,0.283
Ptip (PAX transcription activation domain interacting protein),1,-0.798,0.13,-0.359
Ptip (PAX transcription activation domain interacting protein),2,1.17,0.258,0.351
kst (karst),1,0.832,0.406,-0.271
kst (karst),2,-0.277,0.505,-1.75
CG15739,1,0.405,-0.904,-0.0198
CG15739,2,0.103,0.761,-0.521
CG15739,3,-0.253,-0.136,0.0568
Srp72 (Signal recognition particle 72),1,-0.648,-0.148,-0.294
Srp72 (Signal recognition particle 72),2,-1.64 (active),-1.25,-1.57
vis (vismay),1,-3.1,-0.201,-0.183
CG3860,1,0.273,-0.533,0.419
Ssb-c31a (Single stranded-binding protein c31A),1,-0.314,-1.28,-0.203
Ssb-c31a (Single stranded-binding protein c31A),2,0.0424,0.215,1.13
Ir60b (Ionotropic receptor 60b),1,0.433,-1.39,-0.454
Ir60b (Ionotropic receptor 60b),2,-1.45,0.122,-1.23
CG3587,1,-2.52 (active),-5.2,-3.25
CG3587,2,-1.71 (active),-2.27,-0.748
CG30383,1,-1.01,-0.89,-2.48
CG15155,1,-3.63,-1.52,-1.42
CG5245,1,1.07,-0.00822,-0.996
CG5245,2,-1.36,0.225,-6.77
CG11291,1,-0.257,0.139,0.0486
CG11291,2,-0.157,-1.05,-0.237
CG14118,1,0.0228,0.802,1.28
ND-49L (NADH dehydrogenase (ubiquinone) 49 kDa subunit-like),1,-0.645,0.483,1.38
ND-49L (NADH dehydrogenase (ubiquinone) 49 kDa subunit-like),2,-0.894,0.377,-0.097
Den1 (Deneddylase 1),1,-0.643,0.265,-1.8
Tk (Tachykinin),1,0.676,1.27,-0.208
Tk (Tachykinin),2,0.676,-0.643,0.94
Tk (Tachykinin),3,0.307,0.387,1.11
CG1387,1,0.495,-0.576,-0.623
CG31213,1,-0.236,0.288,0.183
CG31213,2,-0.394,0.961,0.158
CG33299,1,-1.07,-1.83,-2.81
CG33299,2,-0.721,-0.701,0.255
Enoph (Enolase-phosphatase),1,-1.25,-0.171,0.986
Enoph (Enolase-phosphatase),2,0.472,0.4,-0.697
CG42346,1,1.38,-0.105,-0.683
CG42346,2,1.28,1.99,0.239
Ctl2 (Choline transporter-like 2),1,0.605,0.545,-0.0699
Ctl2 (Choline transporter-like 2),2,-0.752,0.693,0.739
CG14647,1,0.318,0.012,-0.0943
CG14647,2,-0.452,-0.737,-0.853
CG14625,1,1.37,0.311,-0.913
CG14625,2,0.608,-0.258,-0.521
